According to ChEMBL document CHEMBL3046385, “Synthesis and bioactivity of novel 3-(1-hydroxyethylidene)-5-substituted-pyrrolidine-2,4-dione derivatives” (Chin Chem Lett, 2012):
Converted amounts (≈) assume the structure as drawn.

System: Brassica rapa subsp. oleifera
Assay: Herbicidal activity against Brassica rapa subsp. oleifera assessed as root inhibition

Structure (SMILES): CCC(C)C1NC(=O)/C(=C(/C)O)C1=O (stereo unspecified)
- EC50: 15 µg/mL (≈ 76.1 µM)
